Measured values from several laboratories, pooled; numbers as filed in NIAID ChemDB.

All rows: tests in culture; agent: HIV-1; read by: luciferase; endpoint: EC50

Blank or dashed fields: not listed here. ECn is the concentration giving n% inhibition of infection, replication or growth. Rows are shuffled and stem from different studies. Two numbers with a dash give a range or band.

compound,cell line,strain,setting,result
COc1ncc(OC)c2c(C(=O)C(=O)N3CCC(=C(c4ccccc4)c4ccc(F)cc4)CC3)c[nH]c12,HeLa,-,-,<1 µM
Cn1nc(NS(C)(=O)=O)c2c(Cl)ccc(-n3c([C@H](Cc4cc(F)cc(F)c4)NC(=O)Cn4nc(C(F)F)c5c4C(F)(F)[C@@H]4C[C@H]54)nc4cc(-c5ccccc5OC(F)F)ccc4c3=O)c21,MT-2,NL4-3,-,0.00011 µM
COc1cnc(-c2cccc(NC(=O)C3OC3C(=O)O)n2)c2[nH]cc(C(=O)C(=O)N3CCN(C(=O)c4ccccc4)CC3)c12,HeLa,-,-,<1 µM
Cc1ccc(N/N=C/c2ccc3cccc(O)c3n2)c(C)c1,TZM-bl,VB59,-,309 µM
COc1cnc(-c2cccn2C)c2[nH]cc(C(=O)C(=O)N3CCN(C(=O)c4ccccc4)CC3)c12,HeLa,-,-,0.0002–1 µM
Cc1cn([C@H]2C[C@H](N=[N+]=[N-])[C@@H](CO)O2)c(=O)[nH]c1=O,TZM-bl,NL4-3,-,0.00745 µM
COc1cnc(-c2cncc(=O)[nH]2)c2[nH]cc(C(=O)C(=O)N3CCN(C(=O)c4ccccc4)CC3)c12,HeLa,-,-,<1 µM
CCCCCCCCCCCCCCCCOC1O[C@@H](CO)[C@H](O)[C@H](O)[C@@H]1O,TZM-bl,NL4-3,-,32.43 µM
COc1ccnc2[nH]cc(C(=O)C(=O)N3CCC(=C(F)c4ccccc4)CC3)c12,HeLa,-,-,<1 µM
CC(=O)Oc1ccc(CCC(=O)CCc2ccc(NC(=O)c3ccc(C)cc3)cc2)cc1OC(C)=O,TZM-bl,BaL,-,23.14 µM
O=C(C(=O)N1CCN(C(=O)c2ccccc2)CC1)c1c[nH]c2cc(F)c(Br)c(F)c12,HeLa + HELA CD4+/CCR5,-,-,<10 µM
CC(=O)Oc1ccc(CCC(=O)CCc2ccc(NC(=O)c3ccc([N+](=O)[O-])cc3)cc2)cc1OC(C)=O,TZM-bl,BaL,-,16.83 µM
O=C(N/N=C/c1ccc(O)cc1)Nc1cccc2nsnc12,Cf2Th-CD4/CXCR4,-,pseudotyped,6.9 µM
CN1CC(C(=O)N(CCCN2CCC(Cc3ccccc3)CC2)c2ccc(Cl)c(Cl)c2)CC1=O,MOLT-4-CCR5+ + MOLT-4,JR-FL R5,-,0.44 µM
Cc1ccc(C)c(N/N=C/c2ccc3cccc(O)c3n2)c1,TZM-bl,UG070,-,17.5 µM
COc1cnc(C(N)=O)c2[nH]cc(C(=O)C(=O)N3CCN(C(=O)c4ccccc4)[C@H](C)C3)c12,HeLa,-,-,≤0.0002 µM
COc1ncc(OC)c2c(C(=O)C(=O)N3CCC(=C(c4ccccc4)c4ccc(SC)cc4)CC3)c[nH]c12,HeLa,-,-,<1 µM
COC(=O)C1=CN(C(=O)C(=O)c2c[nH]c3c(C(=O)OC)cccc23)CCN1C(=O)c1ccccc1,HeLa + HELA CD4+/CCR5,-,-,<10 µM
COc1ccc(N/N=C/c2ccc3cccc(O)c3n2)cc1,TZM-bl,UG070,-,6.27 µM
C[C@H]1CN(C(=O)c2ccccc2)CCN1C(=O)C(=O)c1c[nH]c2c(F)cccc12,HeLa + HELA CD4+/CCR5,-,-,<10 µM
Cc1ccccc1N/N=C/c1ccc2cccc(O)c2n1,TZM-bl,VB59,-,33.35 µM
CCCCCC1=NN(C(=O)CCOC(=O)CCC(=O)O)OC(CCCCC)C1,MT-2,NL4-3,-,0.13 µM
Oc1cccc2ccc(/C=N/Nc3ccc(C(F)(F)F)cc3)nc12,TZM-bl,UG070,-,>150 µM
O=C(CCc1ccc(NC(=O)C2CCCCC2)cc1)CCc1ccc(O)c(O)c1,TZM-bl,BaL,-,18.34 µM
COc1cnc(-n2ccnn2)c2[nH]cc(C(=O)C(=O)N3CCC(=C(c4ccccc4)c4cnn(C)c4)CC3)c12,HeLa,-,-,<1 µM
COc1cccc2c(C(=O)C(=O)N3CCN(C(=O)c4ccccc4)C[C@@H]3C)c[nH]c12,HeLa + HELA CD4+/CCR5,-,-,<10 µM
O=Cc1ccc2cccc(O)c2n1,TZM-bl,VB59,-,12.3 µM
COc1cnc(-n2nccc2CO)c2[nH]cc(C(=O)C(=O)N3CCN(C(=O)c4ccccc4)[C@H](C)C3)c12,HeLa,-,-,<1 µM
CC(=O)Oc1ccc(/C=C/C(=O)CCc2ccc(NC(=O)c3ccccc3)cc2)cc1OC(C)=O,TZM-bl,BaL,-,>50 µM
COc1cnc(-n2nccn2)c2[nH]cc(C(=O)C(=O)N3CCN(C(=O)c4ccccc4)CC3)c12,HeLa,-,-,<1 µM
O=C(/C=C/c1ccc(O)c(O)c1)CCc1ccc(NC(=O)C2CCCCC2)cc1,TZM-bl,BaL,-,>50 µM
COc1c[nH]c(=O)c2[nH]cc(C(=O)C(=O)N3CCN(C(=O)c4ccccc4)CC3)c12,HeLa,-,-,0.0002–1 µM
O=C(C(=O)N1CCN(C(=O)c2ccccc2)CC1)c1c[nH]c2cccc(Br)c12,HeLa + HELA CD4+/CCR5,-,-,<10 µM
CCNC(=O)c1ncn(-c2ncc(OC)c3c(C(=O)C(=O)N4CCN(C(=O)c5ccccc5)CC4)c[nH]c23)n1,HeLa,-,-,≤0.0002 µM
O=C(/C=C/c1ccc(O)c(O)c1)CCc1ccc(NC(=O)Cc2cccs2)cc1,TZM-bl,BaL,-,>50 µM
CNC(=O)c1ccc(-c2ncc(OC)c3c(C(=O)C(=O)N4CCC(=C(C#N)c5ccccc5)CC4)c[nH]c23)cc1,HeLa,-,-,<1 µM
Oc1cccc2ccc(/C=N/Nc3ccc(Cl)cc3Cl)nc12,TZM-bl,VB59,-,>150 µM
O=C(C(=O)N1CCN(C(=O)c2ccc(Cl)o2)CC1)c1c[nH]c2cccc(F)c12,HeLa + HELA CD4+/CCR5,-,-,<10 µM
COc1cnc(-c2cnccn2)c2[nH]cc(C(=O)C(=O)N3CCN(C(=O)c4ccccn4)C(C)C3)c12,HeLa,-,-,<1 µM